Compound potency records, mixed from different reports. Data source: NIAID ChemDB in PubChem.

All rows: whole-cell or culture tests; species: Candida albicans; measure: MIC

Conditions beyond the fields shown may differ between rows.

{"compound": "Fc1ccc(OC(CCn2ccnc2)c2ccccc2)c(F)c1", "strain": "20 strains", "result": "44.2 µg/mL"}
{"compound": "O=C1CSC(c2cccc([N+](=O)[O-])c2)N1c1ncc(-c2cc3ccccc3oc2=O)o1", "strain": "ATCC 10231", "read by": "broth dilution", "result": "20 µg/mL"}
{"compound": "CN(Cc1cccc2ccccc12)/N=C\\c1ccc(F)cc1", "result": ">64 µg/mL"}
{"compound": "c1ccc(C(c2cnn(-c3ccccc3)c2)n2cncn2)cc1", "result": ">200 µM"}
{"compound": "NC(=S)CSc1ccnc(C(N)=S)c1", "strain": "44859", "result": ">1000 µM"}
{"compound": "CN(Cc1cccc2ccsc12)/N=C\\c1ccc(Cl)cc1", "result": ">64 µg/mL"}
{"compound": "O=C1CSC(c2ccc(Cl)cc2)N1c1ncc(-c2cc3ccccc3oc2=O)o1", "strain": "ATCC 10231", "read by": "broth dilution", "result": "36 µg/mL"}
{"compound": "CC(C)c1c(C(c2ccccc2)n2cncn2)cnn1-c1ccccc1", "result": ">200 µM"}
{"compound": "O=C(Cc1ccc(Cl)cc1)Nc1ccc2oc(-c3ccccc3)nc2c1", "strain": "RSKK 628", "result": "50 µg/mL"}
{"compound": "N=C(N)c1ccc2nc(-c3ccc(-c4nc5ccc(C(=N)N)cc5[nH]4)[nH]3)[nH]c2c1", "strain": "Isolate 17 (strain 12-99)", "result": "0.78 µg/mL"}
{"compound": "C=C1[C@@H](C)CC[C@@]2(C)[C@H]1CC=C1CO[C@@H](O)[C@@]12O", "strain": "B311", "result": "50 µg/mL"}
{"compound": "Cc1ccc(NC(=O)CSc2nnc(-c3ccc(N=Cc4cccs4)cc3)o2)c(C)c1", "strain": "MTCC 227", "read by": "broth dilution", "result": "1000 µg/mL"}
{"compound": "Nc1ccc(Cl)cc1C(=O)Nc1ccc(F)cc1", "strain": "ATCC 44859", "result": "500 µM"}
{"compound": "COc1ccc(/C=N\\N(C)Cc2cccc3ccsc23)cc1", "result": ">64 µg/mL"}
{"compound": "Cn1ncc(C#N)c1/N=c1\\ssnc1Cl", "strain": "ATCC 10231", "result": "50 µg/mL"}
{"compound": "CC(C)C(=N)CCC=C1CO[C@@](Cn2cncn2)(c2ccc(F)cc2F)C1", "strain": "B02630", "result": ">100 µg/mL"}
{"compound": "C[C@H]1[C@H](O)[C@@H](C)/C=C/C=C/C=C/C=C/C=C/C=C/C=C/[C@H](O[C@@H]2O[C@H](C)[C@@H](O)[C@H](N)[C@@H]2O)C[C@@H]2O[C@](O)(C[C@@H](O)C[C@@H](O)CC[C@H](O)[C@@H](O)C[C@@H](O)CC(=O)O[C@H]1C)C[C@H](O)[C@H]2C(=O)O", "strain": "1208E", "result": "0.03 µg/mL"}
{"compound": "CC(=O)Oc1cc(Cl)ccc1C(=O)N(C(C)=O)c1ccc(Br)cc1", "strain": "ATCC 44859", "result": "≤31.25 µg/mL"}
{"compound": "Nc1ccc(Cl)cc1C(=O)Nc1ccccc1", "strain": "ATCC 44859", "result": "500 µM"}
{"compound": "CC(C)C(=O)CCC[C@@H]1CO[C@@](Cn2cncn2)(c2ccc(F)cc2F)C1", "strain": "CI-2", "result": "100 µg/mL"}
{"compound": "CCCCn1c(=O)c2sc3c(=O)n(CCCC)c(=O)c3sc2c1=O", "strain": "ATCC 90028", "result": "1.6 µg/mL"}
{"compound": "CC(=O)Oc1c(Cl)cccc1C(=O)Nc1ccc(Cl)cc1", "strain": "ATCC 44859", "result": "15.63 µg/mL"}
{"compound": "O=C(Cc1ccc([N+](=O)[O-])cc1)Nc1ccc2oc(-c3ccccc3)nc2c1", "strain": "RSKK 628", "result": "25 µg/mL"}
{"compound": "CCCCCOc1ccc(-c2ccc(-c3ccc(C(=O)N[C@H]4CCCNC(=O)C5C[C@H](F)N5C(=O)C(C(C)O)NC(=O)C(CCc5ccc(O)cc5)NC(=O)C5C[C@@H](O)CN5C(=O)C(C(C)O)NC4=O)cc3)cc2)cc1", "strain": "ATCC 62376", "result": "0.39 µg/mL"}
{"compound": "O=C(Cc1ccccc1Cl)Nc1ccc2oc(-c3ccccc3)nc2c1", "strain": "RSKK 628", "result": "25 µg/mL"}
{"compound": "COc1cc(C2SCC(=O)N2c2ncc(-c3cc4ccccc4oc3=O)o2)ccc1O", "strain": "ATCC 10231", "read by": "broth dilution", "result": "28 µg/mL"}
{"compound": "CCc1ccc(C(=O)Nc2ccc3oc(-c4ccccc4)nc3c2)cc1", "strain": "RSKK 628", "result": "100 µg/mL"}
{"compound": "O=C1CSC(c2ccc3c(c2)OCO3)N1c1ncc(-c2cc3ccccc3oc2=O)o1", "strain": "ATCC 10231", "read by": "broth dilution", "result": "18 µg/mL"}
{"compound": "Cc1ccccc1Cn1nnc(C#N)c1/N=c1\\ssnc1Cl", "strain": "ATCC 10231", "result": "50 µg/mL"}
{"compound": "O=C(CSc1nnc(-c2ccc(N=Cc3cccs3)cc2)o1)Nc1ccc(Cl)c(Cl)c1", "strain": "MTCC 227", "read by": "broth dilution", "result": "1000 µg/mL"}
{"compound": "O=C1CSC(c2ccc(O)cc2)N1c1ncc(-c2cc3ccccc3oc2=O)o1", "strain": "ATCC 10231", "read by": "broth dilution", "result": "21 µg/mL"}
{"compound": "CC(C)C(=N)CCC[C@H]1CO[C@@](Cn2ccnc2)(c2ccc(F)cc2F)C1", "strain": "CI-2", "result": ">100 µg/mL"}
{"compound": "CN(Cc1cccc2ccsc12)/N=C\\c1ccc(F)cc1", "result": ">64 µg/mL"}
{"compound": "O=C(Nc1ccc2oc(-c3ccccc3)nc2c1)c1ccc(Br)cc1", "strain": "RSKK 628", "result": "50 µg/mL"}
{"compound": "N#Cc1ncn(CCc2ccc(Cl)cc2Cl)c1/N=c1\\ssnc1Cl", "strain": "ATCC 10231", "result": "25 µg/mL"}
{"compound": "Nc1ccccc1C(=O)Nc1ccc(F)cc1", "strain": "ATCC 44859", "result": ">1000 µM"}
{"compound": "C[C@H]1[C@H](O)[C@@H](C)/C=C/C=C/C=C/C=C/C=C/C=C/C=C/[C@H](O[C@@H]2O[C@H](C)[C@@H](O)[C@H](N)[C@@H]2O)C[C@@H]2O[C@](O)(C[C@@H](O)C[C@@H](O)CC[C@H](O)[C@@H](O)C[C@@H](O)CC(=O)O[C@H]1C)C[C@H](O)[C@H]2C(=O)O", "strain": "ATCC 10231", "result": "5 µg/mL"}
{"compound": "CCCCCOc1ccc(-c2ccc(-c3ccc(C(=O)N[C@H]4CCCNC(=O)C5[C@@H](O)[C@@H](O)N5C(=O)C(C(C)O)NC(=O)C(CCc5ccc(O)cc5)NC(=O)C5C[C@@H](O)CN5C(=O)C(C(C)O)NC4=O)cc3)cc2)cc1", "strain": "ATCC 62376", "result": "0.1 µg/mL"}
{"compound": "c1ccc(-c2c(C(c3ccccc3)n3cncn3)cnn2-c2ccccc2)cc1", "result": ">200 µM"}
{"compound": "Clc1ccccc1C(c1ccccc1)(c1ccccc1)n1ccnc1", "strain": "ATCC 10231", "result": "5 µg/mL"}
{"compound": "CC(O)C1NC(=O)C(CCc2ccc(O)cc2)NC(=O)C2C[C@@H](O)CN2C(=O)C(C(C)O)NC(=O)[C@@H](N)CCCNC(=O)C2C[C@H](N)CN2C1=O", "strain": "ATCC 62376", "result": ">100 µg/mL"}
{"compound": "CC(=O)Oc1c(Cl)cccc1C(=O)Nc1ccc(Cl)c(Cl)c1", "strain": "ATCC 44859", "result": "7.81 µg/mL"}
{"compound": "N#Cc1ncn(CCc2ccccc2)c1/N=c1\\ssnc1Cl", "strain": "ATCC 10231", "result": "25 µg/mL"}
{"compound": "CN(Cc1cccc2ccccc12)/N=C\\c1cccc2ccccc12", "result": ">64 µg/mL"}
{"compound": "Nc1ccccc1C(=O)Nc1ccc(Br)cc1", "strain": "ATCC 44859", "result": "1000 µM"}
{"compound": "N#Cc1cnn(CCCc2ccccc2)c1/N=c1\\ssnc1Cl", "strain": "ATCC 10231", "result": "25 µg/mL"}
{"compound": "CC#CC#CC#Cc1ccccc1", "strain": "ATCC 885-653", "result": "50 µg/mL"}
{"compound": "FC(F)(F)c1ccc(OC(CCn2ccnc2)c2ccccc2)cc1", "strain": "20 strains", "result": "38.4 µg/mL"}
{"compound": "CC(C)C(=O)CCC[C@H]1CO[C@@](Cn2cccc2)(c2ccc(F)cc2F)C1", "strain": "A.10231", "result": ">100 µg/mL"}
{"compound": "CCc1ccc(-c2nc3cc(NC(=O)Cc4ccc(Cl)cc4)ccc3o2)cc1", "strain": "RSKK 628", "result": "50 µg/mL"}
{"compound": "Cc1ccc([C@@H](CCn2ccnc2)Oc2ccc(Cl)cc2Cl)cc1", "strain": "20 strains", "result": "2.65 µg/mL"}
{"compound": "O=c1oc(=NCc2ccccc2)c2sc3c(=O)oc(=NCc4ccccc4)c3sc12", "strain": "ATCC 90028", "result": ">51.2 µg/mL"}
{"compound": "NC(=S)CSc1cc(C(N)=S)ccn1", "strain": "44859", "result": ">1000 µM"}
{"compound": "COc1ccc(NC(=O)CSc2nnc(-c3ccc(N=Cc4cccs4)cc3)o2)cc1", "strain": "MTCC 227", "read by": "broth dilution", "result": "500 µg/mL"}
{"compound": "CC(=O)Oc1c(Cl)cccc1C(=O)Nc1ccc(C(F)(F)F)cc1", "strain": "ATCC 44859", "result": "7.81 µg/mL"}
{"compound": "NC(=S)c1cc(N2CCCCC2)ccn1", "strain": "44859", "result": "250 µM"}
{"compound": "CCCCC/C=C\\C/C=C\\CCCCCCCC(=O)N[C@H]1C[C@@H](O)[C@@H](O)NC(=O)[C@@H]2[C@@H](O)[C@@H](C)CN2C(=O)[C@H]([C@H](C)O)NC(=O)[C@H]([C@H](O)[C@@H](O)c2ccc(O)cc2)NC(=O)[C@@H]2C[C@@H](O)CN2C(=O)[C@H]([C@H](C)O)NC1=O", "result": "0.3 µg/mL"}
{"compound": "O=C(Nc1ccc2oc(-c3ccccc3)nc2c1)c1ccc(F)cc1", "strain": "RSKK 628", "result": "50 µg/mL"}
{"compound": "CCCCCCCCOc1ccc(N2CCN(c3ccc(C(=O)N[C@H]4CCCNC(=O)C5C[C@H](N)CN5C(=O)C(C(C)O)NC(=O)C(Cc5ccc(N)cc5)NC(=O)C5CCCN5C(=O)C(C(C)O)NC4=O)cc3)CC2)cc1", "strain": "ATCC CCH442", "result": "0.39 µg/mL"}
{"compound": "CCc1ccc(-c2nc3cc(NC(=O)Cc4ccc(Br)cc4)ccc3o2)cc1", "strain": "RSKK 628", "result": "50 µg/mL"}
{"compound": "O=C(CSc1nnc(-c2ccc(N=Cc3cccs3)cc2)o1)Nc1ccc(F)cc1", "strain": "MTCC 227", "read by": "broth dilution", "result": "1000 µg/mL"}
{"compound": "CCCCCCCCN1CCN(c2ccc(C(=O)N[C@H]3CCCNC(=O)C4C[C@H](N)CN4C(=O)C(C(C)O)NC(=O)C(CCc4ccc(O)cc4)NC(=O)C4C[C@@H](O)CN4C(=O)C(C(C)O)NC3=O)cc2)CC1", "strain": "ATCC CCH442", "result": "1.56 µg/mL"}
{"compound": "C=C1C2CC[C@H](C=O)C(O)(C=O)[C@@]2(C)CC[C@@H]1C", "strain": "B311", "result": "1.56 µg/mL"}
{"compound": "O=c1oc(=NC2CCCCC2)c2sc3c(=O)oc(=NC4CCCCC4)c3sc12", "strain": "ATCC 90028", "result": ">51.2 µg/mL"}
{"compound": "O=C(Nc1ccc2oc(-c3ccccc3)nc2c1)c1ccccc1Cl", "strain": "RSKK 628", "result": "25 µg/mL"}
{"compound": "CC(C)(C)c1c(C(c2ccccc2)n2cncn2)cnn1-c1ccccc1", "result": ">200 µM"}
{"compound": "CCCCCOc1ccc(-c2ccc(-c3ccc(C(=O)N[C@H]4CCCNC(=O)[C@@H]5C[C@H](NC(=O)CCC(=O)O)CN5C(=O)[C@H]([C@@H](C)O)NC(=O)[C@H](CCc5ccc(O)cc5)NC(=O)[C@@H]5C[C@@H](O)CN5C(=O)[C@H]([C@@H](C)O)NC4=O)cc3)cc2)cc1", "strain": "ATCC 10231", "result": "0.78 µg/mL"}
{"compound": "CC(=O)Oc1cc(Cl)ccc1C(=O)Nc1ccc(Br)cc1", "strain": "ATCC 44859", "result": "7.81 µg/mL"}